From patent publication US20230159453A1 (COCRYSTAL PHARMA, INC., priority 2020, published 2023) come the findings set out here.

Chains of the proteins cited; added tags and fusions are not shown. Residues count along the entry.
UniProt Q83883, 1101-1281 limits assumed: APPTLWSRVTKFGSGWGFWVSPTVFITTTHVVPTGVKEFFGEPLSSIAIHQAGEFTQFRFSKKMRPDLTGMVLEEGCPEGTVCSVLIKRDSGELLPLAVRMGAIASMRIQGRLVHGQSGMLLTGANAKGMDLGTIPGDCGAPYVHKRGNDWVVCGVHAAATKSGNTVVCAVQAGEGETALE

SMILES strings stand for the structures.

Assay [1] concerns the target SARS2 protease (Severe acute respiratory syndrome coronavirus 2, UniProt P0DTD1). Nature of the assay: SARS-CoV-2 protease inhibition assay (SARS2 FRET protease assay). In kind it is biochemical. The following applies: SARS-CoV-2 protease 25 nM, peptide substrate 1.3 μM, 30 minutes at 30° C., compounds 20 μM to 1.0 nM.
For assay [2], the target named is Noro protease (Norovirus, UniProt Q83883). The conditions noted are these: FRET, peptide substrate 10 μM, 90 minutes at 37° C., compounds 200 μM to 10.2 nM.

Take `COc1cccc2[nH]c(C(=O)N[C@@H](CC3CCCCC3)C(=O)NC(CC3CC4(CCCCC4)NC3=O)C(=O)C(=O)NC3CC3)cc12` (some centres unmarked): the results for the IC50 in assay [1] and in assay [2] were 44.5 nM and 37100 nM, respectively.
The corresponding values for `O=CC(CC1CC2(CCCCC2)NC1=O)NC(=O)[C@H](CC1CCCCC1)NC(=O)OC(Cc1cccc(Cl)c1)c1cccc(Cl)c1` (some centres unmarked) are 386 nM and 38300 nM.
`CC(C)C[C@H](NC(=O)OC1(Cc2cccc(Cl)c2)CC1)C(=O)N[C@@H](C[C@@H]1CCNC1=O)C(O)S(=O)(=O)O` (some centres unmarked): the IC50 in assay [1] (tested form: Na salt) is 300 nM.

The IC50 is the midpoint of a concentration-inhibition curve.
